Measured values from several laboratories, pooled; numbers as filed in NIAID ChemDB.

Common to all: whole-cell or culture tests; species: Hepatitis B virus

ECn: concentration that inhibits the pathogen or its effect by n%.

structure,cell line,read-out,strain or isolate,method,value
COC(=O)C1=C(CN2CC(F)(F)[C@@H]3[C@H]2CON3CC[C@@](C)(O)C(=O)O)NC(c2nccs2)=N[C@H]1c1ccc(F)c(F)c1C,HepG2.2.15,EC50,,PCR,0.319 µM
Cn1nc2cc(NS(=O)(=O)Nc3ccccc3)ccc2c1C(=O)Nc1ccc(F)c(Cl)c1,HepAD38,EC50,,PCR,100–1000 µM
CC(=O)N[C@H]1C(O[C@@H]2[C@@H](O)[C@H](O)[C@@H](O)C[C@H]2OC(=O)[C@H]2C[C@H](O)[C@]3(O)[C@@H](O)[C@]4(C[C@H](OC(=O)c5ccc(O)cc5)[C@H](C)CO4)O[C@]3(O)C2)O[C@H](CO)[C@@H](O)[C@@H]1O,HepG2 2.2.15,EC50,,ELISA / antigen,24.3 µM
C[C@@H]1Cc2nn3c(c2CN1C(=O)c1ccc(Cl)c(Cl)c1)C(=O)N([C@@H](C)c1ccc(NS(C)(=O)=O)cc1)CC3,HepG2.117,EC50,,PCR,0.045 µM
C[C@@H]1Cc2c(n3ncc(Cc4ccccc4)c3n(-c3ccc(-c4ncnn4C)cc3)c2=O)CN1C(=O)c1ccc(Br)c(C(F)(F)F)c1,HepG2.117,EC50,,luminescence,≤0.05 µM
C[C@@H](NC(=O)c1c2n(c(=O)n1-c1ccc(OCC(F)(F)F)cc1)CCN(C(=O)c1ccc(Br)c(Cl)c1)C2)c1ccccc1,HepG2.117,EC50,,PCR,0.1–0.5 µM
CCOC(=O)C1=C(CN2CC(F)(F)[C@H]3[C@@H]2CCN3CC[C@@](C)(O)C(=O)O)NC(c2nccs2)=N[C@H]1c1ccc(F)c(F)c1F,HepG2.2.15,EC50,,PCR,0.068 µM
C[C@H](NC(=O)c1c2n(c(=O)n1-c1ccc(OCC(F)(F)F)cc1)CCN(C(=O)c1ccc(Br)c(Cl)c1)C2)c1ccc(C#N)cc1F,HepG2.117,EC50,,PCR,0.5–5 µM
CCOC(=O)C1=C(C)NC(c2nccs2)=NC1c1ccc(F)cc1Cl,HepG2.2.15,EC50,,,0.03 µM
CCOC(=O)C1=C(CN2CC(F)(F)[C@H]3[C@@H]2CCN3CC(F)(F)C(C)(C)C(=O)O)NC(c2nccs2)=N[C@H]1c1cccc(F)c1C,HepG2.2.15,EC50,,PCR,0.0085 µM
C[C@H]1Cc2c(n3ncc(Cc4ccccc4)c3n(-c3ccc(-c4n[nH]c(=O)n4C)cc3)c2=O)CN1C(=O)c1ccc(Br)c(C(F)(F)F)c1,HepG2.117,EC50,,luminescence,≤0.05 µM
COC(=O)C1=C(C(OC)OC)NC(c2ccccn2)=NC1c1ccccc1Cl,HepG2.2.15,EC50,,,>100 µM
C[C@@H]1Cc2c(n3ncc(Cc4ccccc4)c3n(-c3ccc(-c4cnnn4C)cc3)c2=O)CN1C(=O)c1ccc(Br)c(C(F)(F)F)c1,HepG2.117,EC50,,luminescence,≤0.05 µM
COc1cc2occc2cc1CNC(=O)c1c2n(c(=O)n1-c1ccc(OC(C)C)cc1)CCN(C(=O)c1ccc(Br)c(Cl)c1)C2,HepG2.117,EC50,,PCR,0.1–0.5 µM
CC(=O)Nc1ccc([C@@H](C)N2CCn3nc4c(c3C2=O)CN(C(=O)c2ccc(Br)c(C#N)c2)[C@H](C)C4)cc1,HepG2.117,EC50,,PCR,0.012 µM
C[C@H]1Cc2c(n3ncc(Cc4ccccc4)c3n(-c3ccc(-c4n[nH]c(C(F)(F)F)n4)cc3)c2=O)CN1C(=O)c1ccc(Br)c(C(F)(F)F)c1,HepG2.117,EC50,,luminescence,0.05–0.5 µM
COC(=O)C1=C(C)NC(c2ccccn2)=NC1c1ccccc1OC,HepG2.2.15,EC50,,,20 µM
Cc1c(S(=O)(=O)Nc2ccc3c(C(=O)Nc4ccc(F)c(Cl)c4)n(C)nc3c2)cnn1C,HepAD38,EC50,,PCR,<100 µM
CC(C)Cc1cnn2c3c(c(=O)n(-c4ccc(-c5nncn5C)cc4)c12)C[C@@H](C)N(C(=O)c1ccc(Cl)c(C(F)(F)F)c1)C3,HepG2.117,EC50,,luminescence,≤0.05 µM
O=C(N/C(C(=O)N1CCCCC1)=C(/Cl)c1ccccc1)c1ccccc1,HepAD38,EC90,,,12 µM
Cn1cc(S(=O)(=O)Nc2ccc3c(C(=O)Nc4ccc(F)c(Cl)c4)n(C)nc3c2)cn1,HepAD38,EC50,,PCR / entry,<100 µM
C[C@@H]1Cc2nn3c(c2CN1C(=O)c1ccc(Cl)c(C#N)c1)C(=O)N([C@H](C)c1cccc(OC(F)F)c1)CC3,HepG2.117,EC50,,PCR,0.082 µM
CCOC(=O)C1=C(CN2CC(F)(F)[C@@H]3[C@H]2CON3C[C@@H](OC)C(C)(C)C(=O)O)NC(c2nccs2)=N[C@H]1c1ccc(F)c(F)c1F,HepG2.2.15,EC50,,PCR,0.004 µM
COc1ccc(CNC(=O)c2c3n(c(=O)n2-c2ccc(OC(C)C)cc2)CCN(C(=O)c2ccc(Br)c(Cl)c2)C3)c(OC)c1,HepG2.117,EC50,,PCR,0.1–0.5 µM
COC(=O)C1=C(C)NC(c2ccccn2)=NC1c1ccccc1C,HepG2.2.15,EC50,,,15 µM
CC(C)Oc1ccc(-n2c(C(=O)NCc3ccc(C(=O)O)cc3)c3n(c2=O)CCN(C(=O)c2ccc(Br)c(Cl)c2)C3)cc1,HepG2.117,EC50,,PCR,>5 µM
CCOC(=O)C1=C(CN2CC(F)(F)[C@H]3[C@@H]2CCN3C[C@@H](O)C(C)(C)C(=O)O)NC(c2nccs2)=N[C@H]1c1cccc(F)c1C#N,HepG2.2.15,EC50,,PCR,0.0133 µM
C[C@@H]1CO[C@@]2(C[C@@H]1OC(=O)c1ccc(O)cc1)O[C@]1(O)C[C@@H](C(=O)O[C@@H]3C[C@H](O)[C@@H](O)[C@H](O)[C@H]3OC3O[C@H](CO)[C@@H](O)[C@H](O)[C@H]3O)C[C@H](O)[C@]1(O)[C@H]2O,HepG2 2.2.15,EC50,,ELISA / antigen,15.1 µM
C[C@H](Cn1cnc2c(N)ncnc21)OCP(=O)(O)O,HepG2.2.15,EC50,,ELISA / antigen,>1740 µM
CCOC(=O)C1=C(C)NC(c2ccccn2)=NC1c1ccccc1Cl,HepG2.2.15,EC50,,,2–3 µM
Cn1nc2cc(NS(=O)(=O)c3ccn(-c4cccc(F)n4)n3)ccc2c1C(=O)Nc1ccc(F)c(Cl)c1,HepAD38,EC50,,,100–1000 µM
Cc1c(Br)c(=O)[nH]c(=O)n1COC(CO)CO,D88,EC50,Mutant L180M/M204V,,30 µg/mL
Cn1nc2cc(NS(=O)(=O)c3ccn(-c4cccnc4)n3)ccc2c1C(=O)Nc1ccc(F)c(Cl)c1,HepAD38,EC50,,PCR,100–1000 µM
CNC(=O)c1ccc(-n2c(=O)c3c(n4ncc(CC5CC5)c24)CN(C(=O)c2ccc(Br)c(C(F)(F)F)c2)[C@@H](C)C3)cc1,HepG2.117,EC50,,luminescence,0.05–0.5 µM
Cn1nc2cc(NCS(=O)(=O)NCCOCCOCCO)ccc2c1C(=O)Nc1ccc(F)c(Cl)c1,HepAD38,EC50,,PCR,100–1000 µM
C[C@@H]1Cc2nn3c(c2CN1C(=O)c1ccc(Cl)c(C#N)c1)C(=O)N([C@@H](C)c1ccc(OC(F)(F)F)cc1)CC3,HepG2.117,EC50,,PCR,0.077 µM
CCOC(=O)C1=C(CN2CC(F)(F)[C@@H]3[C@H]2CON3C[C@@H](O)[C@@H](CC)C(=O)O)NC(c2nccs2)=N[C@H]1c1cccc(F)c1C,HepG2.2.15,EC50,,PCR,0.068 µM
CC(=O)Nc1ccc([C@H](C)N2CCn3nc4c(c3C2=O)CN(C(=O)c2ccc(Br)c(C#N)c2)[C@H](C)C4)cc1,HepG2.117,EC50,,PCR,0.025 µM
C[C@@H]1Cc2nn3c(c2CN1C(=O)c1ccc(Cl)c(C#N)c1)C(=O)N([C@@H](C)c1ccnc(C(F)(F)F)c1)CC3,HepG2.117,EC50,,PCR,0.196 µM
COc1ccc(CN2C[C@@H](O)Cn3c(c4n(c3=O)CCN(C(=O)c3ccc(Br)c(Cl)c3)C4)C2=O)cc1,HepG2.117,EC50,,PCR,0.1–0.5 µM
C[C@@H]1Cc2nn3c(c2CN1C(=O)c1ccc(Cl)c(C#N)c1)C(=O)N([C@@H](C)c1cccc(C(F)(F)F)c1)CC3,HepG2.117,EC50,,PCR,0.044 µM
CNc1n[nH]c2cc(-n3c(=O)c4c(n5ncc(CC(C)C)c35)CN(C(=O)c3ccc(Br)c(Cl)c3)[C@H](C)C4)ccc12,HepG2.117,EC50,,luminescence,≤0.05 µM
C[C@@H]1Cc2nn3c(c2CN1C(=O)c1ccc(Cl)c(C#N)c1)C(=O)N([C@H](C)c1ccc2c(c1)OC(F)(F)O2)CC3,HepG2.117,EC50,,PCR,0.032 µM
CC(=O)Nc1cccc([C@H](C)N2CCn3nc4c(c3C2=O)CN(C(=O)c2ccc(Cl)c(Cl)c2)[C@H](C)C4)c1,HepG2.117,EC50,,PCR,0.024 µM
CCOC(=O)C1=C(CN2CC(F)(F)[C@@H]3[C@H]2CON3C[C@H](O)C(C)(C)C(=O)O)NC(c2nccs2)=N[C@H]1c1cccc(F)c1Cl,HepG2.2.15,EC50,,PCR,0.0285 µM
CNC(=O)c1ccc(-n2c(=O)c3c(n4ncc(Cc5ccsc5)c24)CN(C(=O)c2ccc(Br)c(C(F)(F)F)c2)CC3)cc1,HepG2.117,EC50,,luminescence,≤0.05 µM
COC(=O)C1=C(COCCN=[N+]=[N-])NC(c2ccccn2)=NC1c1ccccc1Cl,HepG2.2.15,EC50,,,25 µM
NC(=O)COc1ccc(CNC(=O)c2c3n(c(=O)n2-c2ccc(OCC(F)(F)F)cc2)CCN(C(=O)c2ccc(Br)c(Cl)c2)C3)c(F)c1,HepG2.117,EC50,,PCR,0.5–5 µM
COc1cccc(-n2cc(S(=O)(=O)Nc3ccc4c(C(=O)Nc5ccc(F)c(Cl)c5)n(C)nc4c3)cn2)n1,HepAD38,EC50,,PCR,100–1000 µM
COC(=O)C1=C(C)NC(c2ccc(F)cn2)=N[C@H]1c1ccc(F)cc1Cl,HepG2.2.15,EC50,,,0.1 µM
C[C@@H]1Cc2nn3c(c2CN1C(=O)c1ccc(Cl)c(C#N)c1)C(=O)N([C@H](C)c1cccc(OC(F)(F)F)c1)CC3,HepG2.117,EC50,,PCR,0.062 µM
CCOC(=O)C1=C(C)NC(C2=NCCS2)=N[C@H]1c1ccc(F)cc1Cl,HepG2.2.15,EC50,,,0.03 µM
C[C@@H]1CO[C@@]2(C[C@@H]1OC(=O)c1ccc(O)cc1)O[C@]1(O)C[C@@H](C(=O)O[C@@H]3C[C@H](O)[C@@H](O)[C@H](O)[C@H]3OC3O[C@H](CO)[C@@H](O)[C@H](O)[C@H]3OC3O[C@H](CO)[C@@H](O)[C@H](O)[C@H]3O)C[C@H](O)[C@]1(O)[C@H]2O,HepG2 2.2.15,EC50,,ELISA / antigen,35.8 µM
Cc1ccc(-n2c(C(=O)NCc3ccccc3)c3n(c2=O)CCN(C(=O)c2ccc(Cl)c(Cl)c2)C3)cc1,HepG2.117,EC50,,PCR,0.5–5 µM
COC(=O)C1=C(CN2CC(F)(F)[C@@H]3[C@H]2CON3CC[C@](C)(O)C(=O)O)NC(c2nccs2)=N[C@H]1c1ccc(F)c(F)c1Cl,HepG2.2.15,EC50,,PCR,0.138 µM
CC(=O)N[C@H]1C(O[C@@H]2[C@@H](O)[C@H](O)[C@@H](O)C[C@H]2OC(=O)[C@H]2C[C@H](O)[C@@]3(O)[C@@H](C2)O[C@@]2(C[C@H](OC(=O)c4ccccc4)[C@H](C)CO2)[C@@H]3O)O[C@H](CO)[C@@H](O)[C@@H]1O,HepG2 2.2.15,EC50,,ELISA / antigen,6.6 µM
CN1[C@H](C(=O)Nc2ccc(F)c(Cl)c2)C[C@H](c2ncc(-c3cn(C)cn3)s2)NS1(=O)=O,PHH,EC50,Genotype D,ELISA / antigen,0.216 µM
Cc1cc2c(C(=O)Nc3ccc(F)c(Cl)c3)n(C)nc2cc1NS(=O)(=O)c1cnn(C)c1,HepAD38,EC50,,PCR,100–1000 µM
C[C@@H]1Cc2nn3c(c2CN1C(=O)c1ccc(Cl)c(C#N)c1)C(=O)N(Cc1ccc2c(c1)OC(F)(F)O2)CC3,HepG2.117,EC50,,PCR,0.058 µM

8 of the rows above, restated:

| structure | cell line | read-out | strain or isolate | method | value |
|---|---|---|---|---|---|
| C[C@H](NC(=O)c1c2n(c(=O)n1-c1ccc(OCC(F)(F)F)cc1)CCN(C(=O)c1ccc(Br)c(Cl)c1)C2)c1ccc(C#N)cc1F | HepG2.117 | EC50 |  | PCR | 0.5–5 µM |
| CNC(=O)c1ccc(-n2c(=O)c3c(n4ncc(CC5CC5)c24)CN(C(=O)c2ccc(Br)c(C(F)(F)F)c2)[C@@H](C)C3)cc1 | HepG2.117 | EC50 |  | luminescence | 0.05–0.5 µM |
| C[C@@H]1Cc2nn3c(c2CN1C(=O)c1ccc(Cl)c(C#N)c1)C(=O)N([C@H](C)c1cccc(OC(F)F)c1)CC3 | HepG2.117 | EC50 |  | PCR | 0.082 µM |
| CCOC(=O)C1=C(CN2CC(F)(F)[C@@H]3[C@H]2CON3C[C@H](O)C(C)(C)C(=O)O)NC(c2nccs2)=N[C@H]1c1cccc(F)c1Cl | HepG2.2.15 | EC50 |  | PCR | 0.0285 µM |
| C[C@@H]1CO[C@@]2(C[C@@H]1OC(=O)c1ccc(O)cc1)O[C@]1(O)C[C@@H](C(=O)O[C@@H]3C[C@H](O)[C@@H](O)[C@H](O)[C@H]3OC3O[C@H](CO)[C@@H](O)[C@H](O)[C@H]3O)C[C@H](O)[C@]1(O)[C@H]2O | HepG2 2.2.15 | EC50 |  | ELISA / antigen | 15.1 µM |
| COc1cc2occc2cc1CNC(=O)c1c2n(c(=O)n1-c1ccc(OC(C)C)cc1)CCN(C(=O)c1ccc(Br)c(Cl)c1)C2 | HepG2.117 | EC50 |  | PCR | 0.1–0.5 µM |
| C[C@H]1Cc2c(n3ncc(Cc4ccccc4)c3n(-c3ccc(-c4n[nH]c(=O)n4C)cc3)c2=O)CN1C(=O)c1ccc(Br)c(C(F)(F)F)c1 | HepG2.117 | EC50 |  | luminescence | ≤0.05 µM |
| C[C@@H]1CO[C@@]2(C[C@@H]1OC(=O)c1ccc(O)cc1)O[C@]1(O)C[C@@H](C(=O)O[C@@H]3C[C@H](O)[C@@H](O)[C@H](O)[C@H]3OC3O[C@H](CO)[C@@H](O)[C@H](O)[C@H]3OC3O[C@H](CO)[C@@H](O)[C@H](O)[C@H]3O)C[C@H](O)[C@]1(O)[C@H]2O | HepG2 2.2.15 | EC50 |  | ELISA / antigen | 35.8 µM |

Lines come from different laboratories, so protocols vary. An empty or dashed field is not shown. a–b is a range or a potency band.